Results of unrelated studies side by side (data: NIAID ChemDB).

Shared fields: toxicity to cultured cells; endpoint: CC50

Blank or dashed fields: not listed here. CCn: concentration that lowers growth or viability of the cells by n%. Neighbouring rows are from separate reports.

SMILES,method,cells,result
CC(C)N(Cc1cccc(OCCCCCC(=O)O)c1)C(=O)c1ccc(-c2ccc3c(c2)OCO3)cc1,,HEK 293,>20 µM
CSc1nsc(-c2ccc(OCCCCOc3ccc(C#N)cc3)cc2)c1C#N,,HELA-OHIO,2 µM
Cn1cc2c(NC(=O)NCCc3ccc4c(n3)NCCC4)cccc2n1,,PBMC,2.7 µM
Nc1nccc(OC[C@@H]2O[C@H](CO)[C@@H](O)[C@H]2O)n1,,PC-3,>250 µM
COc1ccc(/C(C)=N/NC(=O)c2ccncc2)c(OC)c1,MTT,HEL cell,10 µg/mL
C[C@H](O)Cc1cc2c(O[C@H]3O[C@H](CO)[C@@H](O)[C@H]3O)ccc(O)c2c(=O)o1,MTT,HL-60,>40 µg/mL
C[C@@]1(O)[C@H](O)[C@@H](COP(=O)(O)OP(=O)(O)OP(=O)(O)O)O[C@H]1n1ccc2c(N)ncnc21,,MDBK cells,>50 µM
C[C@H](NC(=O)Nc1ccc(-c2csc(N)n2)cc1)c1ccccc1,,HS68,<74 µM
Nc1nc(Cl)cc(OC[C@H]2O[C@H](COCc3ccccc3)[C@@H](OCc3ccccc3)[C@H]2OCc2ccccc2)n1,,PC-3,>250 µM
Nc1nc(-c2ccc(NC(=O)CCN(Cc3ccccc3)C(=O)C3CCCCC3)cc2)cs1,,HS68,<13 µM
CCN(CC)CCNc1cc(C)nc2c1ccc1c2ccc2c(NCCN(CC)CC)cc(C)nc21,MTT,Macrophage line RAW 264.7,0.00601 µM
CSc1nsc(-c2ccc(OCCCc3ccccc3)cc2)c1C#N,,HELA-OHIO,>50 µM
Nc1ccnc(OC[C@H]2CC[C@@H](COCc3ccccc3)O2)n1,,PC-3,≥250 µM
C/C(=N\NC(=O)c1ccncc1)c1ccccc1O,MTT,HEL cells,0.4 µg/mL
CCCN(Cc1cccc(OCCCCCC(=O)OCC)c1)C(=O)c1ccc(Br)cc1,,BJ,>20 µM
Nc1nc(-c2ccc(NC(=O)NCCCn3ccnc3)cc2)cs1,,HS68,<48 µM
Cn1nccc1CN1CCn2c(nc(C(=O)NCc3ccc(F)cc3)c(O)c2=O)C1(C)C,microscopy,MT-4,>1 µM
Cc1nc2c(OC(F)F)cccc2n1-c1ccc(C(=O)NC2CC2)s1,resazurin,Dermal fibroblast,>62 µM
CC1COc2c(N3CCN(C(=O)C4COc5ccccc5O4)CC3)c(F)c([N+](=O)[O-])c3c(=O)c(C(=O)O)cn1c23,MTT,Mammalian Vero cells,113 µM
OC[C@@H]1CC[C@H](COc2ncnc3nc[nH]c23)O1,,CAKI-1,≥250 µM
COc1ccc(-c2[nH]c3nc4c(ncn4COCCO)c(=O)n3c2C)cc1,,OST TK-,62 µg/mL
C[C@H]1[C@H](O)[C@@H](C)/C=C/C=C/C=C/C=C/C=C/C=C/C=C/[C@H](O[C@@H]2O[C@H](C)[C@@H](O)[C@H](N)[C@@H]2O)C[C@@H]2O[C@](O)(C[C@@H](O)C[C@@H](O)CC[C@H](O)[C@@H](O)C[C@@H](O)CC(=O)O[C@H]1C)C[C@H](O)[C@H]2C(=O)O,MTT,MDM,>10 µM
Nc1nc(Cl)cc(OC[C@@H]2O[C@H](COCc3ccccc3)[C@@H](OCc3ccccc3)[C@H]2OCc2ccccc2)n1,,CAKI-1,76 µM
CSc1nsc(-c2ccc(OCCCCOc3ccccc3)cc2)c1C#N,,HEP-2/L-929/VERO,>20 µM
Nc1nc(N)c2cc3c(nc2n1)CCc1ccccc1-3,MTT,ACHN,32.4 µM
O=c1c2ncn(COC(CO)CO)c2nc2[nH]c(-c3ccc(F)cc3)cn12,,OST TK-,278 µg/mL
CCOC(=O)CCCCCOc1cccc(CN(C(=O)c2ccc(-c3cc(OC)cc(OC)c3)cc2)C(C)C)c1,,BJ,>20 µM
CN1CCn2c(nc(C(=O)NCc3ccc(F)cc3)c(O)c2=O)C(N(Cc2ccccc2)C(=O)C(=O)N(C)C)C1,microscopy,MT-4,>1 µM
O=c1c2ncn(COCCO)c2nc2[nH]c(-c3ccc(C(F)(F)F)cc3)cn12,,OST TK-,368 µg/mL
O=S(=O)(NCCc1ccc2c(n1)NCCC2)c1ccc(C(F)(F)F)cc1,,PBMC,50 µM
C/C(=N\NC(=O)c1ccncc1)c1ccc(Br)cc1,MTT,HEL cells,51 µg/mL
O=c1c2ncn(COCCO)c2nc2[nH]c(-c3ccccc3)c(Cc3ccc(F)cc3)n12,,OST TK-,240 µg/mL
CCOC1N=C2C3=C(N=CN2N1c1ccccc1)SC(c1ccncc1)C1=C3/C(=C/c2ccncc2)CCC1,MTT,MGC-803,13.2 µM
CCCCCCCCCCCCCCOC(=O)NC(CCC(=O)O)(CCC(=O)O)CCC(=O)O,,Huh7-SGcon1b,>42 µM
CCOC(=O)c1ccc(OCCOc2ccc(-c3snc(SC)c3C#N)cc2)cc1,,HEP-2/L-929/VERO,2 µM
CN1CCCn2c(nc(C(=O)NCc3ccc(F)cc3)c(O)c2=O)C1(C)C,microscopy,MT-4,>1 µM
Cc1ccc(/C=C2/Cn3c(nc4c(c3=S)C3=C(CCC/C3=C\c3ccncc3)C(c3ccncc3)S4)SC2=O)cc1,MTT,MCF-7,21.4 µM
Nc1nc(N)c2cc3c(ccc4ccccc43)nc2n1,MTT,HCT116,3.88 µM
C=C(C)[C@@H]1CC[C@]2(C(N)=O)CC[C@@]3(C)C(CCC4[C@@]5(C)CC/C(=N\O)C(C)(C)C5CC[C@]43C)C12,MTT,MOLT-4/8,1660 µM
CCOC(=O)CCCCCOc1cccc(CN(C(=O)c2ccc(-c3cccc(OC)c3)cc2)C(C)C)c1,,RAJI,>20 µM
COC1=CC(=O)c2c(O)c3c(c(O)c2C1=O)CC(C)(O)OC3,MTT,MDA-MB-231,1.8 µg/mL
O=C(NCCc1cncc(-n2ccnc2)n1)Nc1cccc(F)c1,,PBMC,50 µM
CC1(C)[C@@H](O)CC[C@]2(C)[C@H]3C(=O)C=C4[C@@H]5C[C@@](C)(C(=O)OCc6cccnc6)CC[C@]5(C)CC[C@@]4(C)[C@]3(C)CC[C@@H]12,,HepG2.2.15,321 µM
CCN(C(=O)C(=O)N(C)C)C1CN(C)CCn2c1nc(C(=O)NCc1ccc(F)cc1)c(O)c2=O,microscopy,MT-4,>1 µM
COc1cc2c(cc1OC)CN(c1c(F)c([N+](=O)[O-])c3c(=O)c(C(=O)O)cn4c3c1OCC4C)CC2,MTT,Vero mammalian cells,62.5 µM
COc1c(C(=O)c2c[nH]c(-c3nc4ccccc4[nH]3)c2)c(O)c(OC)c2occc12,,HCV replicon cells,765 µM
O=C1CCn2c(nc3c(c2=S)C2=C(CCC/C2=C\c2ccncc2)C(c2ccncc2)S3)S1,MTT,CNE-2,42.2 µM
COC1=CC(=O)c2c(O)c(C)c(CC(C)=O)c(O)c2C1=O,MTT,Panc-1,2 µg/mL
CC1CN(c2c(F)cc3c(=O)c(C(=O)O)cn4c3c2OC[C@@H]4C)CC(C)O1,MTT,Mammalian Vero cells,>166 µM
Cc1ccc(Cl)c(NC(=O)NCCc2ccc3c(n2)NCCC3)c1,,PBMC,12 µM
CC1(C)[C@@H](OC(=O)c2cc(=O)c3ccccc3o2)CC[C@]2(C)[C@H]3CC=C4[C@@H]5C[C@@](C)(C(=O)OCc6ccc(Br)cc6F)CC[C@]5(C)CC[C@@]4(C)[C@]3(C)CC[C@@H]12,,HepG2.2.15,>1080 µM
O=C1Sc2nc3c(c(=S)n2C/C1=C/c1ccccc1)C1=C(CCC/C1=C\c1ccncc1)C(c1ccncc1)S3,MTT,CNE-2,24.5 µM
CN(C)c1cccc2c(S(=O)(=O)Nc3ccc(NC(=O)C(C)(C)C(=O)O)cc3)cccc12,,Human embryonic lung fibroblasts,250 µM
CC1COc2c(N3CCN(C(=O)c4ccco4)CC3)c(F)c([N+](=O)[O-])c3c(=O)c(C(=O)O)cn1c23,MTT,Mammalian Vero cells,64.25 µM
CNc1cccc2c(S(=O)(=O)Nc3ccc(NC(=O)C(C)(C)C(=O)O)cc3)cccc12,,Human embryonic lung fibroblasts,250 µM
CC1COc2c(N3CCSCC3)c(F)c([N+](=O)[O-])c3c(=O)c(C(=O)O)cn1c23,MTT,Mammalian Vero cells,153 µM
CN(C)C(=O)C(=O)N(C)C1COCCn2c1nc(C(=O)NCc1ccc(F)cc1)c(O)c2=O,microscopy,MT-4,>1 µM
CC1(C)[C@@H](O)CC[C@]2(C)[C@H]3C(=O)C=C4[C@@H]5C[C@@](C)(C(=O)OCc6cccc7cccnc67)CC[C@]5(C)CC[C@@]4(C)[C@]3(C)CC[C@@H]12,,HepG2.2.15,>1700 µM
O=C(c1c[nH]c2ccccc12)[C@H](O)CO,MTT,HL-60,>40 µg/mL
CN(C)c1cccc2c(S(=O)(=O)Nc3ccc(NC(=O)C(C)(C)C)cc3)cccc12,,Mouse fibroblast cell lines,33.3 µM
Nc1cc(OC[C@@H]2O[C@H](CO)[C@@H](O)[C@H]2O)nc(N)n1,,PC-3,>250 µM
CC1(C)[C@@H](O)CC[C@]2(C)[C@H]3C(=O)C=C4[C@@H]5C[C@@](C)(C(=O)OCCCCCCCCO)CC[C@]5(C)CC[C@@]4(C)[C@]3(C)CC[C@@H]12,,HepG2.2.15,157 µM
CN1CCn2c(nc(C(=O)NCc3ccc(F)cc3)c(O)c2=O)C1CN(C)S(=O)(=O)N(C)C,microscopy,MT-4,>10 µM
CN(CC(=O)Nc1ccc(-c2csc(N)n2)cc1)C(=O)c1ccncc1,,HS68,>110 µM
CC(C)(C)C(=O)Nc1ccc(NS(=O)(=O)c2cccc3ccccc23)cc1,,Human embryonic lung fibroblasts,48.9 µM
CC1(C)[C@@H](O)CC[C@]2(C)[C@H]3C(=O)C=C4[C@@H]5C[C@@](C)(C(=O)OCc6cc(C(F)(F)F)cc(C(F)(F)F)c6)CC[C@]5(C)CC[C@@]4(C)[C@]3(C)CC[C@@H]12,,HepG2.2.15,>1700 µM
Nc1ccnc(OC[C@H]2CC[C@@H](CO)O2)n1,,PC-3,≥250 µM
COc1cc(O)c2c(c1O)C(=O)c1cc(C)ncc1C2=O,MTT,Panc-1,120.5 µg/mL
CN(C)c1cccc2c(S(=O)(=O)Nc3ccc(NC(=O)C(C)(C)CCl)cc3)cccc12,,Mouse fibroblast cell lines,15.6 µM
COc1cc(OC[C@H]2CC[C@@H](CO)O2)ncn1,,L1210,196 µM
O=C(NCCc1ccc2c(n1)NCCC2)NCC1CCc2ccccc2C1,,PBMC,13 µM
CC1(C)[C@@H](O)CC[C@]2(C)[C@H]3C(=O)C=C4[C@@H]5C[C@@](C)(C(=O)OCCO)CC[C@]5(C)CC[C@@]4(C)[C@]3(C)CC[C@@H]12,,HepG2.2.15,380 µM